The target in this assay is surface expressed H5 rHA, wild type, on PER.C6 cells (UniProt Q6DQ34).

For the substance CR6261 human IgG1 F54A, the response (arbitrary units) was 0.22.
In the case of CR6261 human IgG1 F54L, the response (arbitrary units) is 0.36.

The values are drawn from article PMC2596486, “Heterosubtypic Neutralizing Monoclonal Antibodies Cross-Protective against H5N1 and H1N1 Recovered from Human IgM^+ Memory B Cells” (2008).
